Data from article PMC12276032, “Intracellular and Extracellular Efficacy of Homoisoflavone Derivatives Against Mycobacterium Tuberculosis: Progress Toward Novel Antitubercular Agents” (Chemmedchem, 2025).
Values joined by “and” are separate entries in the source; they are usually repeats but may differ in a detail not shown here. Equal entries are not always repeated.

What was measured:
[1] = tested on: Mycobacterium tuberculosis H37Rv; assay: Mtb H37Rv growth inhibition in extracellular bacterial culture (MTT); assay type: cell-based; settings: CC50 RAW 264.7 / MIC90 Mtb H37Rv
[2] = tested on: Mycobacterium tuberculosis M299; assay type: cell-based; settings: CC50 RAW 264.7 / MIC90 Mtb M299

COc1ccc(/C=C2\COc3ccccc3C2=O)cc1 [Compound 10]
SI [CC50/MIC90] [1]: >5.9
SI [CC50/MIC90] [2]: > 3.4

O=C1/C(=C/c2ccc3c(c2)OCO3)COc2ccccc21 [Compound 15]
SI [CC50/MIC90] [1]: 2.7
SI [CC50/MIC90] [2]: 3.5

COc1cc(/C=C2\COc3ccccc3C2=O)ccc1O [Compound 17]
SI [CC50/MIC90] [1]: 2.9
SI [CC50/MIC90] [2]: 2.1

O=C1/C(=C/c2ccc(O)c(Cl)c2)COc2ccccc21 [Compound 18]
SI [CC50/MIC90] [1]: 3.1
SI [CC50/MIC90] [2]: 2.1

O=C1/C(=C/c2ccc(O)c(Br)c2)COc2ccccc21 [Compound 19]
SI [CC50/MIC90] [2]: 4.3

O=C1/C(=C/c2ccc(-n3ccnc3)cc2)COc2ccccc21 [Compound 21]
SI [CC50/MIC90] [1]: 3.6
SI [CC50/MIC90] [2]: 4.8

O=C1/C(=C/c2ccc([N+](=O)[O-])o2)COc2ccccc21 [Compound 22]
SI [CC50/MIC90] [2]: > 20 and 27.7

COc1ccc(/C=C2\COc3cc(O)ccc3C2=O)cc1OC [Compound 34, (E)‐3‐(3,4‐Dimethoxybenzylidene)‐7‐Hydroxychroman‐4‐one]
SI [CC50/MIC90] [1]: > 3.4
SI [CC50/MIC90] [2]: > 20 and 23.8

O=C1/C(=C/c2ccc([N+](=O)[O-])o2)COc2cc(N3CCCCC3)ccc21 [Compound 41]
SI [CC50/MIC90] [2]: > 20 and 27.1

O=C1/C(=C/c2ccc([N+](=O)[O-])s2)COc2cc(N3CCCCC3)ccc21 [Compound 42]
SI [CC50/MIC90] [1]: 1.9
SI [CC50/MIC90] [2]: 5.5
